A mixed list of measured activities; the numbers were collected in NIAID ChemDB.

All rows: cytotoxicity tests; cells: MRC-5; endpoint: CC50

Blank or dashed fields: not listed here.

compound,method,result
COCC(CCP(=O)(O)O)OCn1cnc2c(Cl)nc(N)nc21,visual reading,>2263 µM
Fc1cccn2cc(-c3ccccc3)cc12,MTT,>500 µM
CCO/N=C/c1ccc(OCCC2CCN(c3nc(C(=O)OCC)cs3)CC2)cc1,neutral red,>0.5 µg/mL
O=S1(=O)N=C(OCc2ccc(C(F)(F)F)cc2)c2ccccc2N1Cc1ccc(C(F)(F)F)cc1,-,>48 µM
CCOP(=O)(CCC(COC)OCn1cnc2c(=O)[nH]c(N)nc21)OCC,visual reading,611 µM
COC1=NS(=O)(=O)N(Cc2ccc(Cl)cc2)c2ccccc21,-,7.4 µM
O=[N+]([O-])c1ccc(COC2=NS(=O)(=O)N(Cc3ccc([N+](=O)[O-])cc3)c3ccccc32)cc1,-,>53 µM
CCOP(=O)(O)CCC(CO)OCn1cnc2c(=O)[nH]c(N)nc21,visual reading,>2800 µM
C=CCO/N=C/c1ccc(OCCC2CCN(c3ccc(Cl)nn3)CC2)c(C)c1,visual reading,>1 µg/mL
O=S1(=O)N=C(OCC2CCCCC2)c2ccccc2N1Cc1ccc(Cl)cc1,-,2.3 µM
CC(C)CN1c2ccccc2C(=O)N(Cc2ccccc2)S1(=O)=O,-,>72 µM
CCO/N=C/c1ccc(OCCCCN(C)c2ccc(Cl)nn2)cc1,neutral red,>0.5 µg/mL
N#Cc1ccc(-c2cc3ccccn3c2)cc1,MTT,>500 µM
COc1ccc(CN2C(=O)c3ccccc3N(Cc3ccc(OC)cc3)S2(=O)=O)cc1,-,>57 µM
Brc1ccc(-c2cc3ccccn3c2)cc1,MTT,>500 µM
CCO/N=C(\C)c1cc(OC)c(OCCC2CCN(c3ccc(Cl)nn3)CC2)c(OC)c1,visual reading,>50 µg/mL
CC(C)N1C(=O)c2ccccc2N(Cc2ccc(Cl)cc2)S1(=O)=O,-,6.8 µM
c1ccc(-c2cc3ccccn3c2)cc1,MTT,100–500 µM
Nc1nc2c(ncn2COCC(O)CCP(=O)(O)O)c(=O)[nH]1,visual reading,1686 µM
O=C1c2ccccc2N(Cc2cccnc2)S(=O)(=O)N1Cc1ccccc1,-,>66 µM
CC(C)OC1=NS(=O)(=O)N(Cc2ccc(Cl)cc2)c2ccccc21,-,2.7 µM

Repeating the final 3 entries:

compound | method | result
Nc1nc2c(ncn2COCC(O)CCP(=O)(O)O)c(=O)[nH]1 | visual reading | 1686 µM
O=C1c2ccccc2N(Cc2cccnc2)S(=O)(=O)N1Cc1ccccc1 | - | >66 µM
CC(C)OC1=NS(=O)(=O)N(Cc2ccc(Cl)cc2)c2ccccc21 | - | 2.7 µM

Lines come from different laboratories, so protocols vary. Two numbers with a dash give a range or band. CCn: concentration that lowers growth or viability of the cells by n%.